Data as given in PubChem BioAssay AID624099 (ICCB-Longwood, 2012).
Shown is an unselected part of about 21,000 deposited reagents. Over the whole deposit, 497 (2.4%) are marked active. 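Higher z means weaker E2 silencing; only reporter increases were scored, and knock-downs that hurt cell survival may mask genuine repressor factors.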 A number with no mark means an inactive call. The numbers tell different reagents against one gene apart. Reagent sequences are not shown.

Aim: 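Knock-downs relieving repression by E2 of an HPV18 LCR luciferase reporter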 (primary screen)
System: human C33A cervical carcinoma cells (HPV-negative) stably expressing BPV1 E2 and an HPV18 LCR luciferase reporter
Reagents: siRNA pool against human genes, 40 nM
Duration: 72 h
Measurement: 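HPV18 LCR reporter light per well, converted to plate-wise z-scores that exclude control wells, and averaged over triplicate plates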
Direction: mean z-score and z-score: higher = stronger reporter signal, weaker E2 silencing
Hit rule: 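Hit if mean z-score reaches 2 and two or more of three replicate z-scores also reach 2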

gene symbol | pool no. | mean z-score | z-score, replicate A | z-score, replicate B | z-score, replicate C
UBAP2L | 1 | -0.42 | -0.64 | -0.14 | -0.48
LOC400144 (retired record) | 1 | 0.87 | 0.82 | 0.93 | 0.85
MON2 | 1 | -0.55 | -0.69 | -0.83 | -0.14
ALS2CL | 1 | -0.22 | -0.05 | -0.34 | -0.27
KIAA0232 | 1 | 0.57 | 0.15 | 0.76 | 0.8
DIRAS2 | 1 | -0.76 | -0.73 | -0.65 | -0.91
TGFBI | 1 | 7.34 (active) | 7.2 | 7.29 | 7.53
BTG2 | 1 | 0.33 | 0.23 | 0.27 | 0.49
LOC388140 (retired record) | 1 | -0.93 | -0.97 | -1.13 | -0.69
TMEM42 | 1 | -0.49 | -0.86 | -0.63 | 0.01
ABCE1 | 1 | -1.84 | -1.95 | -1.62 | -1.96
N4BP1 | 1 | -1.1 | -0.79 | -1.28 | -1.23
N4BP1 | 2 | 2.19 (active) | 2.45 | 1.86 | 2.27
CABIN1 | 1 | 0.48 | 0.73 | 0.35 | 0.37
SERPINH1 | 1 | -0.5 | -0.69 | -0.3 | -0.5
DCAF10 | 1 | 0.96 | 0.9 | 0.9 | 1.09
FDCSP | 1 | -0.95 | -0.64 | -1.06 | -1.15
NPAP1 | 1 | -0.07 | 0.02 | 0.09 | -0.32
TXLNB | 1 | -0.67 | -0.47 | -0.47 | -1.07
UBALD2 | 1 | -0.28 | -0.27 | -0.02 | -0.57
DHRS12 | 1 | 0.54 | 0.63 | 0.6 | 0.39
PPL | 1 | 0.08 | -0.1 | 0.22 | 0.14
SLC22A1 | 1 | -0.37 | -0.1 | -0.23 | -0.78
